{"source": "patent US20080261312A1", "about": "“Methods for matrix cleanup and analysis of drugs and metabolites in biological matrices” (priority 2007, published 2008)", "assay": "Quantification of ion-suppression/enhancement (matrix effect), Matuszewski method, post-spiked WAX-aided extracts vs neat solutions, LC-MS/MS", "data": [{"smiles": "NC1=N[C@H](O)[C@H]2[C@H]3O[C@]4(O)O[C@@H]([C@@H](O)[C@@]2(N1)[C@@H]4O)[C@]3(O)CO", "note": "[Tetrodotoxin]", "values": [{"measurement": "Matrix Effect (%)", "result": 97.6, "unit": "%"}]}]}
